In ChEMBL document CHEMBL1150695, “The synthesis of SO-3, a conopeptide with high analgesic activity derived from Conus striatus” (2003):

Tests used:
Mus musculus [1] = assay: Analgesic activity in mouse assessed as reaction time required to elicit jumping or hind paw licking at 1.5 ug/kg, intracerebrally after 2.5 hrs by hot plate method
Mus musculus [2] = assay: Analgesic activity in mouse assessed as reaction time required for tail flicking at 3.2 ug/kg, intracerebrally after 4 hrs by light radiation method
Rattus norvegicus [3] = assay: Analgesic activity in rat assessed as reaction time required for tail flicking response at 2 ug/kg, intracerebrally after 1 hr by tail-flicking reaction method
Mus musculus [4] = assay: Analgesic activity in mouse assessed as reaction time required for tail flicking at 1.7 ug/kg, intracerebrally after 3.3 hrs by light radiation method
Rattus norvegicus [5] = assay: Analgesic activity in rat assessed as reaction time required for tail flicking response at 2 ug/kg, intracerebrally after 2 hrs by tail-flicking reaction method
Mus musculus [6] = assay: Analgesic activity in mouse assessed as reaction time required to elicit jumping or hind paw licking at 1 ug/kg, intracerebrally after 0.5 hrs by hot plate method
Carassius carassius = assay: Toxicity against Carassius carassius assessed as survivality at 0.5 to 8.5 ug/gold fish, intramuscular; details: in vivo, im
Mus musculus [7] = assay: Analgesic activity in mouse assessed as reaction time required for tail flicking at 1.2 ug/kg, intracerebrally after 4 hrs by light radiation method
Mus musculus [8] = assay: Analgesic activity in mouse assessed as reaction time required for tail flicking at 0.7 ug/kg, intracerebrally after 3.3 hrs by light radiation method
Mus musculus [9] = assay: Analgesic activity in mouse assessed as reaction time required for tail flicking at 2.7 ug/kg, intracerebrally after 2.5 hrs by light radiation method
Mus musculus [10] = assay: Analgesic activity in mouse assessed as reaction time required for tail flicking at 1.7 ug/kg, intracerebrally after 4 hrs by light radiation method
Mus musculus [11] = assay: Analgesic activity in mouse assessed as reaction time required to elicit jumping or hind paw licking at 3 ug/kg, intracerebrally after 4 hrs by hot plate method
Mus musculus [12] = assay: Analgesic activity in mouse assessed as reaction time required for tail flicking at 3.2 ug/kg, intracerebrally after 2.5 hrs by light radiation method
Mus musculus [13] = assay: Analgesic activity in mouse assessed as reaction time required for tail flicking at 1.2 ug/kg, intracerebrally after 2.5 hrs by light radiation method
Mus musculus [14] = assay: Analgesic activity in mouse assessed as reaction time required for tail flicking at 1.2 ug/kg, intracerebrally after 1 hr by light radiation method
Mus musculus [15] = assay: Analgesic activity in mouse assessed as reaction time required for tail flicking at 0.7 ug/kg, intracerebrally after 2.5 hrs by light radiation method
Mus musculus [16] = assay: Analgesic activity in mouse assessed as reaction time required to elicit jumping or hind paw licking at 1.5 ug/kg, intracerebrally after 0.5 hrs by hot plate method
Rattus norvegicus [17] = assay: Analgesic activity in rat assessed as reaction time required for tail flicking response at 2 ug/kg, intracerebrally after 4 hrs by tail-flicking reaction method
Mus musculus [18] = assay: Analgesic activity in mouse assessed as decrease in acetic acid-induced twisting motion at 0.7 ug/kg, intracerebral
Rattus norvegicus [19] = assay: Analgesic activity in rat assessed as reaction time required for tail flicking response at 1.2 ug/kg, intracerebrally after 3 hrs by tail-flicking reaction method
Mus musculus [20] = assay: Analgesic activity in mouse assessed as reaction time required to elicit jumping or hind paw licking at 1.5 ug/kg, intracerebrally after 1.5 hrs by hot plate method
Mus musculus [21] = assay: Analgesic activity in mouse assessed as reaction time required to elicit jumping or hind paw licking at 0.5 ug/kg, intracerebrally after 0.5 hrs by hot plate method
Mus musculus [22] = assay: Analgesic activity in mouse assessed as reaction time required to elicit jumping or hind paw licking at 0.5 ug/kg, intracerebrally after 1.5 hrs by hot plate method
Mus musculus [23] = assay: Analgesic activity in mouse assessed as reaction time required for tail flicking at 2.2 ug/kg, intracerebrally after 3.3 hrs by light radiation method
Mus musculus [24] = assay: Analgesic activity in mouse assessed as reaction time required to elicit jumping or hind paw licking at 3 ug/kg, intracerebrally after 0.5 hrs by hot plate method
Mus musculus [25] = assay: Analgesic activity in mouse assessed as reaction time required for tail flicking at 1.7 ug/kg, intracerebrally after 1 hr by light radiation method
Rattus norvegicus [26] = assay: Analgesic activity in rat assessed as increase of threshold for tail withdrawal at 1.2 ug/kg, by mechanical stimulus test
Rattus norvegicus [27] = assay: Analgesic activity in rat assessed as increase of threshold for tail withdrawal at 2 ug/kg, intracerebrally by mechanical stimulus test
Mus musculus [28] = assay: Analgesic activity in mouse assessed as reaction time required for tail flicking at 1.7 ug/kg, intracerebrally after 2.5 hrs by light radiation method
Mus musculus [29] = assay: Analgesic activity in mouse assessed as reaction time required for tail flicking at 2.2 ug/kg, intracerebrally after 4 hrs by light radiation method
Mus musculus [30] = assay: Analgesic activity in mouse assessed as reaction time required to elicit jumping or hind paw licking at 1 ug/kg, intracerebrally after 1.5 hrs by hot plate method
Mus musculus [31] = assay: Analgesic activity in mouse assessed as reaction time required for tail flicking at 0.7 ug/kg, intracerebrally after 4 hrs by light radiation method
Rattus norvegicus [32] = assay: Analgesic activity in rat assessed as reaction time required for tail flicking response at 1.2 ug/kg, intracerebrally after 4 hrs by tail-flicking reaction method

Work on CC[C@H](C)[C@@H]1NC(=O)[C@H](CCCNC(=N)N)NC(=O)[C@H](CO)NC(=O)[C@@H]2CSSC[C@@H]3NC(=O)[C@H](CO)NC(=O)CNC(=O)[C@H]([C@H](C)O)NC(=O)[C@H](CSSC[C@H](N)C(=O)N[C@@H](CCCCN)C(=O)N[C@@H](C)C(=O)N[C@@H](C)C(=O)NCC(=O)N[C@@H](CCCCN)C(=O)N4CCC[C@H]4C(=O)N2)NC(=O)[C@H](CSSC[C@@H](C(N)=O)NC(=O)[C@H](CCCCN)NC(=O)CNC(=O)[C@H](CO)NC(=O)[C@H](CCCNC(=N)N)NC3=O)NC(=O)[C@H](CC(N)=O)NC(=O)[C@H](Cc2ccc(O)cc2)NC(=O)[C@H](C)NC1=O yielded an Activity (Mus musculus [1]) of 38.2 s, an Activity (Mus musculus [2]) of 11.6 s and an Activity (Rattus norvegicus [3]) of 3.2 s. It also gave an Activity (Mus musculus [4]) of 11.5 s, an Activity (Rattus norvegicus [5]) of 4 s and an Activity (Mus musculus [6]) of 43 s. The Activity (Carassius carassius) was “Non-toxic”, the Activity (Mus musculus [7]) was 7.66 s and the Activity (Mus musculus [8]) was 9.8 s. The Activity (Mus musculus [9]) was 11.9 s, the Activity (Mus musculus [10]) was 10.4 s and the Activity (Mus musculus [11]) was 51.8 s. The Activity (Mus musculus [12]) was 11.8 s, the Activity (Mus musculus [13]) was 8.5 s and the Activity (Mus musculus [14]) was 10.5 s. The Activity (Mus musculus [15]) was 10 s, the Activity (Mus musculus [16]) was 49.6 s and the Activity (Rattus norvegicus [17]) was 3.2 s. The Activity (Mus musculus [18]) was 9.6, the Activity (Rattus norvegicus [19]) was 3.5 s and the Activity (Mus musculus [20]) was 39.6 s. It also gave an Activity (Mus musculus [21]) of 23.4 s, an Activity (Mus musculus [22]) of 20 s and an Activity (Mus musculus [23]) of 9.6 s. For the same molecule, the Activity (Mus musculus [24]) was > 60 s, the Activity (Mus musculus [25]) was 12.2 s and the Activity (Rattus norvegicus [26]) was 100 g. The Activity (Rattus norvegicus [27]) was 150 g, the Activity (Mus musculus [28]) was 12.9 s and the Activity (Mus musculus [29]) was 7.3 s. For the same molecule, the Activity (Mus musculus [30]) was 16.2 s, the Activity (Mus musculus [31]) was 8.1 s and the Activity (Rattus norvegicus [32]) was 3.5 s.
